Values quoted from earlier work, collected in paper PMC10301793 (Marine Drugs, 2023).
The structures given here were assigned with low confidence; some may be wrong.

Protein sequences, listed by entry. Tags and fused reporters are not part of them. Residues count along the entry.
UniProt Q05941, 23-502 limits assumed: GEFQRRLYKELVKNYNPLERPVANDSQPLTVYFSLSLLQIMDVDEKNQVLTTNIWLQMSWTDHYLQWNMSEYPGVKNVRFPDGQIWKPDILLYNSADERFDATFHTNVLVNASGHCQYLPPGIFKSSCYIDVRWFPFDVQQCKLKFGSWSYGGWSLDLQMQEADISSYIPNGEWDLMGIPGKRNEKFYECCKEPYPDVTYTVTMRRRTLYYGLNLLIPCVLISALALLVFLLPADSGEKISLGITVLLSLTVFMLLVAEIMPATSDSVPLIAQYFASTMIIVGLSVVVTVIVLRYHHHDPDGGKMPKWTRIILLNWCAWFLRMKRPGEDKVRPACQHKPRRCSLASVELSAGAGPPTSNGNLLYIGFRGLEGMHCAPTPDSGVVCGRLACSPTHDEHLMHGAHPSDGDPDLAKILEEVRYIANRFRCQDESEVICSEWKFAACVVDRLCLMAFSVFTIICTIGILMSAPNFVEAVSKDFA
UniProt P12389, 28-511 limits assumed: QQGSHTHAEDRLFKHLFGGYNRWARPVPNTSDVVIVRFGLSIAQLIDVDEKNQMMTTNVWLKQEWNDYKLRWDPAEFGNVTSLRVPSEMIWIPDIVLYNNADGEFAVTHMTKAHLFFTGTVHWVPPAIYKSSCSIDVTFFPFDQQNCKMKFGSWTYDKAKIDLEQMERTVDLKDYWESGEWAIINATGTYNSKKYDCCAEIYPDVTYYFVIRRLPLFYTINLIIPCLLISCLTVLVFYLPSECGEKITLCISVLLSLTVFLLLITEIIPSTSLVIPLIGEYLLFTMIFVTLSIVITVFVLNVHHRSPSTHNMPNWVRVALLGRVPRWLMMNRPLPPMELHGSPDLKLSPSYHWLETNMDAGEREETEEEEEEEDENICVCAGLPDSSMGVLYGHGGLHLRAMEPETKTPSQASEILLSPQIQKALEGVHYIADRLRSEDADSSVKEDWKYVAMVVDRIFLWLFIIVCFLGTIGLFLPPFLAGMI
UniProt P12390, 25-500 limits assumed: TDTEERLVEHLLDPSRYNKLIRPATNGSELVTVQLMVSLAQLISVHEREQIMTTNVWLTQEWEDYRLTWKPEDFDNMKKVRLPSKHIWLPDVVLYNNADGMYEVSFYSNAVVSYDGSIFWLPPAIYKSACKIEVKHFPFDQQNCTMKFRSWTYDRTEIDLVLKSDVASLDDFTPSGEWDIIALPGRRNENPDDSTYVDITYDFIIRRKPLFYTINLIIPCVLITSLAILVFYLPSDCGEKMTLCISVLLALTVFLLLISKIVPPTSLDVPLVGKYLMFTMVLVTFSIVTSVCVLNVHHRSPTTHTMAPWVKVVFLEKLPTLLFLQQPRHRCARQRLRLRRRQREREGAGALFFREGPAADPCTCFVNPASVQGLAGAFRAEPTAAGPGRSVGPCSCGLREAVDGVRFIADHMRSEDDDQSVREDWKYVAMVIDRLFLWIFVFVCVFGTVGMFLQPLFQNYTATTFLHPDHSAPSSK
UniProt P12390, whole entry, looked up: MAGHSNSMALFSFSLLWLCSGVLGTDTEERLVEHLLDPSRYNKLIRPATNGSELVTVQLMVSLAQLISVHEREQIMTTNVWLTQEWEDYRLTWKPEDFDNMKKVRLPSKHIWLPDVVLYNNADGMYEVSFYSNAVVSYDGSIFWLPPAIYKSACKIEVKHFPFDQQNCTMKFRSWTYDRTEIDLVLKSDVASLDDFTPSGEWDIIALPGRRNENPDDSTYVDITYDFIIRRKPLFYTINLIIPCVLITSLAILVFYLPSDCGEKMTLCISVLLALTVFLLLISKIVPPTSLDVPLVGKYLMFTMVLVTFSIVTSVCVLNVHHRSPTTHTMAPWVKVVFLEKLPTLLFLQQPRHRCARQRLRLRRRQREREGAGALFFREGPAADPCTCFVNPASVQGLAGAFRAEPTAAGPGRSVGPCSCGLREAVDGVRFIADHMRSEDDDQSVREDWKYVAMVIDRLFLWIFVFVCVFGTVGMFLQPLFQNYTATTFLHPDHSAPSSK
UniProt P04757, 26-499 limits assumed: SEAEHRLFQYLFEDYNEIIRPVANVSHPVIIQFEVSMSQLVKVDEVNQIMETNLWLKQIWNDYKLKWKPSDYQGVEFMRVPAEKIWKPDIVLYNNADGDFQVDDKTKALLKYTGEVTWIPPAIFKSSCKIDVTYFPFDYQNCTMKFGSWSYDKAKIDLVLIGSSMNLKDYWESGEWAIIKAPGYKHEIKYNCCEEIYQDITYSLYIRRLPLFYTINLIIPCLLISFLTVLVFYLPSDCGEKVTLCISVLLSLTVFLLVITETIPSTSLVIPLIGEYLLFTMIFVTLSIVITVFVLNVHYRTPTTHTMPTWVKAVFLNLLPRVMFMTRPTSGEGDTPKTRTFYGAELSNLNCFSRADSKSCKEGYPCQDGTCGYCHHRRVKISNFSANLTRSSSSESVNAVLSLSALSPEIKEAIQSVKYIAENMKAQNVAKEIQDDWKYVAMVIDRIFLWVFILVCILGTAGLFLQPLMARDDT
UniProt P04757, whole entry, looked up: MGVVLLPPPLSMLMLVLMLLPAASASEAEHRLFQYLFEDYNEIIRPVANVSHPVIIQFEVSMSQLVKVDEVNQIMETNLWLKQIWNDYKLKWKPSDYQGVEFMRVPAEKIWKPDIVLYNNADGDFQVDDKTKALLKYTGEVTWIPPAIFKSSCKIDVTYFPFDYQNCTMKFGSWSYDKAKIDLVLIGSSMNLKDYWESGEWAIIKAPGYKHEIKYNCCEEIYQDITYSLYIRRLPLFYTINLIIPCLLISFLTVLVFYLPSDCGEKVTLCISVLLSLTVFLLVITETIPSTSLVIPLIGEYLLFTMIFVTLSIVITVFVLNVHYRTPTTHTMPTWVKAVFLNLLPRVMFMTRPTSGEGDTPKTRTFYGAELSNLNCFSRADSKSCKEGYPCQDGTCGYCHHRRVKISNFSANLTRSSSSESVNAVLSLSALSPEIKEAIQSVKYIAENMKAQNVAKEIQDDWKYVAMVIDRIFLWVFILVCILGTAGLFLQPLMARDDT
UniProt P12392, 21-495 limits assumed: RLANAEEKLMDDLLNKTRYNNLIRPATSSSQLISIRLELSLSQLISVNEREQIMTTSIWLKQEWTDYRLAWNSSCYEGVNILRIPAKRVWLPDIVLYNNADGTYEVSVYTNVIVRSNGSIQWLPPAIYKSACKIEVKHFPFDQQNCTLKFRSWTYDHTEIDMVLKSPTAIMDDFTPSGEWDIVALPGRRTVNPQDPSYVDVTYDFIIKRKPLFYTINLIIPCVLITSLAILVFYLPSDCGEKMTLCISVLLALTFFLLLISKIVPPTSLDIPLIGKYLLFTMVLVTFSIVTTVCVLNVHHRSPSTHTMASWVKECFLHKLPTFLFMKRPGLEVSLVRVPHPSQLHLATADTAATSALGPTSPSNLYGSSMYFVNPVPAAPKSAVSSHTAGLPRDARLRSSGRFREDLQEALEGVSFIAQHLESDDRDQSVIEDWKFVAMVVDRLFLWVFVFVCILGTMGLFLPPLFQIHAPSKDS
UniProt P12392, whole entry, looked up: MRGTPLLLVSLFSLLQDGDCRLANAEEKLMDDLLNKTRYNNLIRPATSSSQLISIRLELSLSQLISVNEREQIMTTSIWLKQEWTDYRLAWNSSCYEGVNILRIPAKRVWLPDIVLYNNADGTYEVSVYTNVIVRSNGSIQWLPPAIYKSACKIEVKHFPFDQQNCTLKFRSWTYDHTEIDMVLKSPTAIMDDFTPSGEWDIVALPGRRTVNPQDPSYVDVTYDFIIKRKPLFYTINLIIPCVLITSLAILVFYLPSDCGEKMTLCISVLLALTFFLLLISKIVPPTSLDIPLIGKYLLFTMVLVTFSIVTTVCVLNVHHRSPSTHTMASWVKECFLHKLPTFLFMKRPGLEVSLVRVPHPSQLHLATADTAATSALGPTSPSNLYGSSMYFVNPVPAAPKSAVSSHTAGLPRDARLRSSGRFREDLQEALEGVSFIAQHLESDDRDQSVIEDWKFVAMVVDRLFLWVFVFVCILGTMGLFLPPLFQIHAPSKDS
UniProt P09483, 31-630 limits assumed: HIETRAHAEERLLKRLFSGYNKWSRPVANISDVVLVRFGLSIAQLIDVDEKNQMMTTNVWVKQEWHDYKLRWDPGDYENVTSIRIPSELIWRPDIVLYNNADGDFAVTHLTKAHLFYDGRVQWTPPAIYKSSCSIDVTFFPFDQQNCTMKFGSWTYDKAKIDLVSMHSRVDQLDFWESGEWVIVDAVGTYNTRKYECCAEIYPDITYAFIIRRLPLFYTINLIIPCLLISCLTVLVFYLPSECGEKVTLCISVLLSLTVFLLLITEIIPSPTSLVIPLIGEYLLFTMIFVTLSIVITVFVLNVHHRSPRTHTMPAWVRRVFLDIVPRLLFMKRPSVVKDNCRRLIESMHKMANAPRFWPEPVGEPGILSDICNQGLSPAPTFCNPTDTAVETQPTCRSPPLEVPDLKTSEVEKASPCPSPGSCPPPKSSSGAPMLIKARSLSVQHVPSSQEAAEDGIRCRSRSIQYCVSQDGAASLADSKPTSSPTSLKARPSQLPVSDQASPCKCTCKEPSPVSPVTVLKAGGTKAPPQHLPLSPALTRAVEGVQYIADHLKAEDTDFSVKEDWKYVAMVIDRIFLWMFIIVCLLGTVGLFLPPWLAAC
UniProt P12391, whole entry, looked up: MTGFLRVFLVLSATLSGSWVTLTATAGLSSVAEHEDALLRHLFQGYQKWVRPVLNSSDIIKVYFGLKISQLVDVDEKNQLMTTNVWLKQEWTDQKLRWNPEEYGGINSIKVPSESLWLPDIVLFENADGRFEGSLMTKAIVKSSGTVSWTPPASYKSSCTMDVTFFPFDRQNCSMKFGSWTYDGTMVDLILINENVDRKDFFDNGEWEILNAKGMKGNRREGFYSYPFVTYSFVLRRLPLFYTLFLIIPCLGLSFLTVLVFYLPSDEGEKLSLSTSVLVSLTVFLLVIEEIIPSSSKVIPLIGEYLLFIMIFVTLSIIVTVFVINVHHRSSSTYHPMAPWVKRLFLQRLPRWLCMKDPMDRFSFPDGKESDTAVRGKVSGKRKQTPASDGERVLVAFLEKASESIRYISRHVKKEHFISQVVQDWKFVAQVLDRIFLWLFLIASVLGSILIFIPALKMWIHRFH
UniProt P43143, whole entry M241L/F253L/V303I/V320I/I327V/A333T/K339T, looked up: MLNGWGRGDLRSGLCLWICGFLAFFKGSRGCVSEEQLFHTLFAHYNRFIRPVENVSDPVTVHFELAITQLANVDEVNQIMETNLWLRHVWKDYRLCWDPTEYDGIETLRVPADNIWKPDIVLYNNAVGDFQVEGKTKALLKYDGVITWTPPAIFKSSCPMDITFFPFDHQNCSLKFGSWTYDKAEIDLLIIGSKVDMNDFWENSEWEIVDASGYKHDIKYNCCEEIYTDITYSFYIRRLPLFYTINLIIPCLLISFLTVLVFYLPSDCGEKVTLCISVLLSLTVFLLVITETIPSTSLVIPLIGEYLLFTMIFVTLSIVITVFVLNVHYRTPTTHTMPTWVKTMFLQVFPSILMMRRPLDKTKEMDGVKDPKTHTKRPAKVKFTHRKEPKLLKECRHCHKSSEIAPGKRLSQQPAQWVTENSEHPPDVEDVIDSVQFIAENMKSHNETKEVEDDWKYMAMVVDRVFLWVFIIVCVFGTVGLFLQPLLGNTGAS

What was measured:
other subtypes = conditions: at concentrations up to 10 μM; ref [14]; cited from earlier work
α7 nAChR = α7 nAChR (Rattus norvegicus, UniProt Q05941); conditions: ref [13]; cited from earlier work
α2β2 nAChR = α2β2 nAChR (Rattus norvegicus, UniProt P12389+P12390); conditions: ref [13]; cited from earlier work
α3β2 nAChR = α3β2 nAChR (Rattus norvegicus, UniProt P04757+P12390); conditions: ref [13]; cited from earlier work
α3β4 nAChR = α3β4 nAChR (Rattus norvegicus, UniProt P04757+P12392); conditions: ref [13]; cited from earlier work
α4β2 nAChR = α4β2 nAChR (Rattus norvegicus, UniProt P09483+P12390); conditions: ref [13]; cited from earlier work
α4β4 nAChR = α4β4 nAChR (Rattus norvegicus, UniProt P09483+P12392); conditions: ref [13]; cited from earlier work
α6/α3β2β3 nAChR = α6/α3β2β3 nAChR (Rattus norvegicus, UniProt P04757+P12390+P12391+P43143); conditions: ref [13]; cited from earlier work
α6/α3β4 nAChR = α6/α3β4 nAChR (Rattus norvegicus, UniProt P04757+P12392+P43143); conditions: ref [13]; cited from earlier work

Row | Compound | inhibition of other subtypes (other subtypes) | Hill Slope (α7 nAChR) | Hill Slope (α2β2 nAChR) | Hill Slope (α3β2 nAChR) | Hill Slope (α3β4 nAChR) | IC50 (α4β2 nAChR) | Hill Slope (α4β4 nAChR) | Hill Slope (α6/α3β2β3 nAChR) | Hill Slope (α6/α3β4 nAChR)
1 | CC(C)[C@@H]1NC(=O)[C@@H]2CCCN2C(=O)[C@H](CC(N)=O)NC(=O)[C@H](C)NC(=O)[C@@H]2CSSC[C@@H](C(=O)N[C@@H](CCC(N)=O)C(=O)O)NC(=O)[C@H](Cc3c[nH]cn3)NC(=O)[C@H](CCCCN)NC(=O)CNC(=O)[C@H](CC(N)=O)NC(=O)[C@H](CSSC[C@H](NC(=O)[C@@H](N)CC(=O)O)C(=O)N2)NC1=O | hardly inhibited other subtypes | – | – | – | – | – | – | – | –
2 | CC(C)C[C@@H]1NC(=O)[C@H](C(C)C)NC(=O)[C@H](C)NC(=O)[C@@H]2CSSC[C@H](NC(=O)CN)C(=O)N[C@@H](CSSC[C@@H](C(N)=O)NC(=O)[C@H](Cc3ccc(O)cc3)NC1=O)C(=O)N[C@@H](CO)C(=O)N[C@@H]([C@@H](C)O)C(=O)N1CCC[C@H]1C(=O)N1CCC[C@H]1C(=O)N2 | – | −1.21 | −0.850 | −1.48 | −1.52 | > 10 nM | −1.15 | −0.963 | −1.40
